Test results: patent US8691859B2 (priority 2005, dated 2014)
≈ marks a conversion by molar mass, not a printed value.

Tests used:
[1] = system: Vancomycin resistant E. faecium; assay: MIC, visual inspection and OD600
[2] = system: Vancomycin resistant E. feacalis; assay: MIC, visual inspection and OD600

**Q.** `c1cc2cc(-c3ccc(-c4cc5ccc(C6=NCCN6)cc5[nH]4)cc3)[nH]c2cc1C1=NCCN1` [NSC 317881, 6-(4,5-dihydro-1H-imidazol-2-yl)-2-[4-[6-(4,5-dihydro-1H-imidazol-2-yl)-1H-indol-2-yl]phenyl]-1H-indole] was tested. Which MIC [1] did it give?
**A.** 0.155 µg/mL (≈ 0.349 µM)

**Q.** What about the MIC [2] of the same molecule?
**A.** 0.155 µg/mL (≈ 0.349 µM)
